Molecular target: T1, HA from A/Brevig Mission/1/1918(H1N1) (influenza A virus A/Brevig …, UniProt Q9WFX3)
T1 construct: also called 1918 pdm HA
Test: ELISA

B1: H1-specific monoclonal antibody GC0757 (antibody, V domains shown)
VH: VKLQESGAVVQPGGSLRLSCAASGFTGSDYDMSWIRQAPGKGLEWVSGILGGSERSYYRDSVKGRSTISRDNSRKTLYLEMNSLRAEDTAVYYCARHSWGAYVQYGMDGWGQGTTVTVSS
VL: DIQMTQSPASLAVSPGQRATITCRASESVSNYGINFINWFQQKPGQPPKLLIYTASNKGTGVPARFSGSGSGTDFTLTINPVEAEDTANYFCQQTKEVPYGTFGGTKLEIK
notes: copies: 2 + 2
binding result: binds

— article PMC3935945, “Insight into Highly Conserved H1 Subtype-Specific Epitopes in Influenza Virus Hemagglutinin” (PLoS ONE, 2014)
